## Percent effect of library compounds

Each number is a percent effect as filed. The controls that fix the scale are not given in the record; negative values are as filed. Many other results are left out here, so strong results are more common than in the screen.

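Growth of Mycobacterium tuberculosis over 3 days (7H9 medium with glucose and tyloxapol); the read-out is not stated. Tested at 500 µM. The record gives no direction; compounds that gave an IC50 in retests scored well above the rest, so higher reads as more growth inhibition. Of about 18,000 compounds tested this way, about 1,400 (7.9%) reached 50% or more in at least one test.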

| # | SMILES | effect |
|---|---|---|
| 1 | `CCOc1ccc(C(=O)NCCCO)cc1OCC` | 43.67% |
| 2 | `CC(C(=O)N(C)Cc1cc(Br)cs1)n1cncn1` (centres unmarked) | 36.82% |
| 3 | `NCc1nnc2n1CCC2` | 5.658% |
| 4 | `CCCN1CCC(NCCc2ccccn2)CC1` | -6.818% |
| 5 | `C[n+]1ccn(C(=O)N2CCCCCC2)c1.[I-]` | 22.97% |
| 6 | `CC(C)=CCO[C@H]1CCOC[C@H]1NC(=O)c1cnc[nH]1` | -2.511% |
| 7 | `CCCNC(=O)C[S+]([O-])Cc1cccc(Cl)c1` (centres unmarked) | 44.45% |
| 8 | `CCn1nc(-c2ccc(F)cc2)oc1=O` | -8.999% |
| 9 | `CNC(=O)C(C)Sc1nnnn1-c1ccccc1C` (centres unmarked) | 65.12% |
| 10 | `CN1CCCCC1C(=O)NCCOCc1ccccc1` (centres unmarked) | 13.62% |
| 11 | `CC(C(=O)NCc1cccs1)n1cccn1` (centres unmarked) | 19.2% |
| 12 | `CCC(C(=O)NCc1nnc2n1CCC2)n1cccn1` (centres unmarked) | -4.186% |
| 13 | `COCCOc1ccc(NC(=O)OCC(F)(F)F)cn1` | 60.73% |
| 14 | `CNCc1c(C)cc(C)nc1OC` | 5.855% |
| 15 | `CN(CCO)c1ccc2ccc(F)cc2n1` | 27.38% |
| 16 | `C=C(C)CN(C)CC1CCN(CCO)CC1` | -6.789% |
| 17 | `CS(=O)(=O)c1nc2ccccc2n1CCC(N)=O` | -2.454% |
| 18 | `Cc1nc(O)c(C(=O)NCc2ncc[nH]2)cc1Br` | -0.9838% |
| 19 | `CCS(=O)(=O)c1ccc(CNc2ncccc2Cl)cc1` | 65.09% |
| 20 | `CCC(CC)(CN)C(=O)N1CCOC(C)(C)C1` | -14.32% |
| 21 | `COCCN(C)CCCNC(=O)c1cnc(C)cn1` | 5.887% |
| 22 | `CN1CCC(CNC(=O)CCc2ccccc2O)C1` (centres unmarked) | 49.66% |
| 23 | `Cn1nccc1C(=O)NC1CCc2ccccc2OC1` (centres unmarked) | 53.82% |
| 24 | `CC(CN)c1ccc(F)cc1` (centres unmarked) | 3.751% |
| 25 | `c1nnc(C2COCCN2)o1` (centres unmarked) | -8.387% |
| 26 | `CN(C)c1ccc(C(=O)N(C)C2(C#N)CCC2)cc1F` | 80.32% |
| 27 | `NC(=O)CSCC(=O)Nc1ccc(Cl)c(F)c1` | 31.11% |
| 28 | `COCCN(CCC#N)S(=O)(=O)c1c(C)nn(C)c1Cl` | 6.224% |
| 29 | `O=C(CC1Sc2ccc(Cl)cc2NC1=O)OCCO` (centres unmarked) | 99.24% |
| 30 | `COCC(C)NC(=O)c1cccnc1OCC(F)(F)F` (centres unmarked) | -5.225% |
| 31 | `O=C1CCC(C(=O)Nc2ccc(F)c(Br)c2)N1` (centres unmarked) | 48.1% |
| 32 | `CCc1nccc(CN2CCC(NC(C)=O)C2)n1` (centres unmarked) | -9.606% |
| 33 | `CCC(O)CN1CCN(c2ccccc2C#N)C(=O)C1` (centres unmarked) | 5.122% |
| 34 | `Cc1nc[nH]c1CN1CCC(CN2CCOCC2)CC1` | 7.049% |
| 35 | `O=C1NC2(CCCCC2)C(=O)Nc2ccccc21` | 4.492% |
| 36 | `O=C(CNc1ccccc1F)N1CCCCC1` | 72.06% |
| 37 | `Cc1nc[nH]c1CN1CCCOC(CN2CCCC2)C1` (centres unmarked) | -9.019% |
| 38 | `Cc1ccnc(NC(=O)N2CCCC(CO)C2)c1` (centres unmarked) | 17.51% |
| 39 | `Cc1ccc(F)cc1C(=O)N1CCNCC1` | -2.474% |
| 40 | `CN(Cc1ncnn1C)C(=O)CCc1cccc(Cl)c1` | 41.76% |
| 41 | `NC1CCN(C2CCOCC2)CC1` | -9.134% |
| 42 | `COc1cc(CN)cc(Cl)c1OCC(N)=O` | 13.59% |
| 43 | `Cc1cc(C)c(C)c(OCC(=O)N2CCN(C)CC2)c1` | 70.92% |
| 44 | `O=C(Nc1ncco1)NC1CCN(c2ccccn2)C1` (centres unmarked) | 3.229% |
| 45 | `COCC(C)(N)C(=O)OC` (centres unmarked) | 0.4379% |

4 of the entries, repeated:

- C[n+]1ccn(C(=O)N2CCCCCC2)c1.[I-] : 22.97%
- CNCc1c(C)cc(C)nc1OC : 5.855%
- CS(=O)(=O)c1nc2ccccc2n1CCC(N)=O : -2.454%
- COCC(C)NC(=O)c1cccnc1OCC(F)(F)F (centres unmarked) : -5.225%

From ChEMBL document CHEMBL3988442, “University of Dundee, Small-Polar-MMV Screening Library” (2021).